Laboratory results taken from USRE39021E1, “Hydantoin-enhanced halogen efficacy in pulp and paper applications” (Lonza Inc., priority 1994, dated 2006).

Experiment: Example 6: effluent AOX analyses of treated pulp slurry

Structure (SMILES)	reduction of AOX of NaOCl-treated pulp slurry effluent (about 70 ppm as Cl2 initial total halogen, Example 6)	Effluent AOX (initial total halogen 74 ppm as Cl2, pulp slurry effluent)
CC1(C)NC(=O)NC1=O [DMH, 5,5-dimethylhydantoin]	36%	
[Na+].[O-]Cl [NaOCl, sodium hypochlorite]		5.8 ppm
